# Test results as given in patent US20230120677.
# Target: Clover-SNAP-25-mRuby2 FRET sensor (UniProt P60880)
substance,measurement,value
WT ALC (full-length wild-type BoNT/A-LC),Activity 1 (Clover/FRET) Timepoint 1,10.2 Clover/FRET
same,Activity 2 (Clover/FRET) Timepoint 2,11.9 Clover/FRET
same,Activity 3 (Clover/FRET) Timepoint 3,10.6 Clover/FRET
same,Activity 4 (Clover/FRET) Timepoint 4,6.98 Clover/FRET
same,Activity 5 (Clover/FRET) Timepoint 5,9.19 Clover/FRET
same,Avg Activity,9.78
same,"fluorescence intensity ratio between Clover and mRuby2, co-expression in E. coli",13
